A mixed list of measured activities; the numbers were collected in NIAID ChemDB.

Shared fields: whole-cell or culture tests; agent: HIV-1; read by: cytopathic effect / MTT; measure: EC50

a–b is a range or a potency band. ECn is the concentration giving n% inhibition of infection, replication or growth. Blank or dashed fields: not listed here. Conditions beyond the fields shown may differ between rows.

SMILES	mutations	cell line	strain	result
CC(C)(C)NC(=O)[C@@H]1C[C@@H]2CCCC[C@@H]2CN1C[C@H](O)CNC(=O)[C@@H]1N[C@@H]([C@H](NC(=O)Cc2ccccc2)C(=O)NCc2ccccc2)SC1(C)C		MT-4	RF	0.35 µM
CCOCn1c(Cc2ccccc2)c(C(C)C)c(=O)[nH]c1=O		MT-4	IIIB	0.02 µM
CCCc1cc(=O)oc2c3c(c4c(c12)OC(C)(C)C=C4)O[C@H](CC)[C@H](C)[C@H]3O		MT-2		>11.6 µM
CC(C)c1nc(CN(C)C(=O)N[C@@H](C(=O)NN(Cc2ccc(O)cc2)C[C@H](O)[C@H](Cc2ccccc2)NC(=O)OCc2cncs2)C(C)C)cs1		MT-4	IIIB	0.04 µM
Fc1cccc(F)c1Cn1c(=S)[nH]c2ccc(Cl)cc21		MT-4	IIIB	0.58 µg/mL
CC(=O)O[C@H]1CC[C@H](O)CC[C@@H](C)/C=C/[C@@]2(C)CC[C@@H](C(C)(C)OC(C)=O)[C@H]12		MT-2		4.1 µM
CCC(C)Nc1n[nH]c2ccc(S(=O)(=O)N(CC(C)C)C[C@@H](O)[C@H](Cc3ccccc3)NC(=O)O[C@H]3CO[C@H]4OCC[C@H]43)cc12		MT-4	HXB2 Recombinant	0.01 µM
COc1ncc(C(c2ccccc2)n2ccnc2)c(-c2ccccc2)n1		MT-4	IIIB	>177.5 µM
NCCCC(N)CC(N)=O		MT-4	IIIB	>100 µg/mL
CCCc1cc(=O)oc2c3c(c4c(c12)OC(C)(C)C=C4)OC(C)(C)[C@H](C)C3=O		MT-2		>21 µM
C=C(C)COCn1c(C(=C)c2cc(C)cc(C)c2)c(CC)c(=O)[nH]c1=O		MT-4	IIIB	0.1 µM
COc1ccc2c(c1)C1(c3ccccc3)SCCN1C2=O		MT-2		1.18 µM
C=C(C)COCn1c(C(=C)c2ccccc2)c(CC)c(=O)[nH]c1=O		MT-4	IIIB	3.4 µM
CC=CC(=O)c1c(CC)c(=O)[nH]c(=O)n1COCC		MT-4	HTLV-IIIB WT	>100 µM
CC(C)CCC[C@@H](C)[C@H]1CC[C@H]2[C@@H]3CC[C@H]4C[C@@H](CCC=C(c5cc(Cl)c(O)c(C(=O)O)c5)c5cc(Cl)c(O)c(C(=O)O)c5)CC[C@]4(C)[C@H]3CC[C@]12C		MT-4	IIIB	1.8 µg/mL
C=C(c1cc(C)cc(C)c1)c1c(CC)c(=O)[nH]c(=O)n1COCC		MT-4	IIIB	0.035 µM
Cc1noc2ccc(S(=O)(=O)N(CC(C)C)C[C@@H](O)[C@H](Cc3ccccc3)NC(=O)O[C@H]3CO[C@H]4OCC[C@H]43)cc12		MT-4	HXB2 Recombinant	0.0018 µM
CCOCn1c(C(=O)C2=CCCCC2)c(CC)c(=O)[nH]c1=O		MT-4	IIIB WT	3.1 µM
Fc1cccc(F)c1CCn1c(=S)[nH]c2cccnc21		MT-4	IIIB	>25 µg/mL
CC(=O)Oc1cc(S(=O)(=O)O)cc2cc(S(=O)(=O)O)cc(OC(C)=O)c12		MT-4	HE	>500 µM
O=[N+]([O-])c1ccccc1C1SCc2nc3ccccc3n21		CEM	RF	17.2 µM
CCCc1cc(=O)oc2c3c(c4c(c12)OC(C)(C)C=C4)O[C@H](C)C(C)(C)[C@@H]3O		MT-2		>20.3 µM
C=CCOCn1c(C(=C)c2cc(C)cc(C)c2)c(CC)c(=O)[nH]c1=O		MT-4	IIIB	0.03 µM
CCCCCCCNC(=O)[C@@H](NC(=O)Cc1ccccc1)[C@@H]1N[C@@H](C(=O)NCC(O)CN2C[C@H]3CCCC[C@H]3C[C@H]2C(=O)NC(C)(C)C)C(C)(C)S1		MT-4	RF	>100 µM
CC(C)c1nc(-c2ccc(N3C(=O)C=CC4C3c3ccccc3N4C)cc2)no1		MT-4	LAI	1–32 µM
CCOCn1c2c(c(=O)[nH]c1=O)COC2c1ccccc1		MT-4	IIIB	32 µM
Cc1ccc2[nH]c(=S)n(Cc3c(F)cccc3F)c2c1		MT-4	IIIB	11.92 µg/mL
CCN1C(=O)c2cccn2S(=O)(=O)c2ccc(Cl)cc21		MT-4		13 µM
C/C(=C/[C@H]1C[C@](C)(O)C2[C@@H](C[C@@]3(C)[C@@H]4CC=C5[C@@H](C[C@H](O)[C@@H](O)C5(C)C)[C@]4(C)C(=O)C[C@]23C)O1)CO		C8166		43.2 µM
Cc1cn([C@@H]2O[C@H](CO)[C@@H](CN=[N+]=[N-])[C@H]2O)c(=O)[nH]c1=O		MT-2	IIIB	>100 µM
CC(C)(C)NC(=O)[C@@H]1C[C@@H]2CCCC[C@@H]2CN1C[C@@H](O)CNC(=O)[C@@H]1N[C@@H]([C@H](NC(=O)Cc2ccccc2)C(=O)NCc2ccccc2)SC1(C)C		MT-4	RF	13.6 µM
C=CCN1C(=O)c2cccn2S(=O)(=O)c2ccc(Cl)cc21		MT-4		>32 µM
CC1(C)[C@@H](O[C@H]2O[C@H](C(=O)O)[C@@H](O)[C@H](O)[C@H]2O[C@@H]2O[C@H](C(=O)O)[C@@H](O)[C@H](O)[C@H]2O)CC[C@]2(C)[C@H]3C(=O)C=C4[C@@H]5C[C@@](C)(C(=O)O)CC[C@]5(C)CC[C@@]4(C)[C@]3(C)CC[C@@H]12		MT-4	IIIB	<620 µM
CO[C@H]1C=C2C(C[C@H](O)[C@@H](O)C2(C)C)[C@]2(C)C(=O)C[C@]3(C)C([C@@](C)(O)C(=O)CCC(C)(C)OC(C)=O)[C@H](O)C[C@@]3(C)[C@H]12		C8166		94.2 µM
CCCc1cc(=O)oc2c(C(=O)C(C)C(C)(C)O)c(O)c3c(c12)OC(C)(C)C=C3		MT-2		>27.1 µM
NNC(=O)c1cccn1S(=O)(=O)c1cc(Cl)ccc1[N+](=O)[O-]		MT-4	IIIB	>200 µM
C#CCOCn1c(C(=C)c2cc(C)cc(C)c2)c(CC)c(=O)[nH]c1=O	RT-K103N Y181C	MT-4	IIIB	23 µM
CCOCn1c(C(=O)C=C(C)C)c(CC)c(=O)[nH]c1=O		MT-4	RT-Y181C N119	>100 µM
c1ccc(-c2oncc2C(c2ccccc2)n2cncn2)cc1		MT-4	IIIB	>200 µM
C#CCOC(=O)c1cccn1S(=O)(=O)c1cc(Cl)ccc1[N+](=O)[O-]		MT-4	IIIB	>4.9 µM
COc1ccc2[nH]c(=S)n(Cc3c(F)cccc3F)c2c1		MT-4	IIIB	>1.71 µg/mL
C=C(c1cc(C)cc(C)c1)c1c(CC)c(=O)[nH]c(=O)n1COC/C(C)=C/c1ccccc1	RT-K103N Y181C	MT-4	IIIB	>100 µM
C[C@H](CS(C)(=O)=O)C(=O)N[C@@H](Cc1ccccc1)[C@H](O)CN1C[C@H]2CCCC[C@H]2C[C@H]1C(=O)NC(C)(C)C		CEM		0.052 µM
CC(=O)Nc1cc(S(=O)(=O)O)c2cccc(S(=O)(=O)O)c2c1		MT-4	IIIB	>414 µM
COCCOC(=O)c1cccn1S(=O)(=O)c1cc(Cl)ccc1[N+](=O)[O-]		MT-4	IIIB	>12 µM
CN1c2ccccc2C2C1C=C(C(N)=O)C(=O)N2c1ccc([N+](=O)[O-])cc1		MT-4	LAI	1–32 µM
CCOCn1c(Cc2ccccc2)c(C(C)C)c(=O)[nH]c1=O		MT-4	IIIB	0.014 µM
NC(=O)c1cccn1S(=O)(=O)c1cc(Cl)ccc1N		MT-4	IIIB	15 µM
Fc1cccc(F)c1Cn1c(=S)[nH]c2ccc(Cl)nc21		MT-4	IIIB	0.73 µg/mL
COCCCCCCCCCCCC(=O)O		CEM		1–5 µM
O=C1Nc2cc(Cl)ccc2S(=O)(=O)n2cccc21		MT-4		35 µM
CN(C)c1ncc(C(c2ccccc2)n2ccnc2)c(-c2ccccc2)n1		MT-4	IIIB	>58.7 µM
CCNC(=O)[C@@H](NC(=O)Cc1ccccc1)[C@@H]1N[C@@H](C(=O)NC[C@H](O)CN2C[C@H]3CCCC[C@H]3C[C@H]2C(=O)NC(C)(C)C)C(C)(C)S1		MT-4	RF	0.43 µM
Cc1cn([C@@H]2O[C@H](CO)[C@@H](CF)[C@@H]2O)c(=O)[nH]c1=O		MT-2	IIIB	>100 µM
CC(C)c1nc(CN(C)C(=O)N[C@@H](C(=O)NN(CC2C=COC=C2)C[C@H](O)[C@H](Cc2ccccc2)NC(=O)OCc2cncs2)C(C)C)cs1		MT-4	IIIB	1.13 µM
CCOCn1c2c(c(=O)[nH]c1=O)CCC2c1ccccc1		MT-4	IIIB	36 µM
CC(C)=CCN1C(=O)c2cccn2S(=O)(=O)c2ccc(Cl)cc21		MT-4		>300 µM
CN(C)CCCCN1c2ccccc2C2C1C=C(C#N)C(=O)N2c1ccc([N+](=O)[O-])cc1		MT-4	LAI	<1 µM
CCCc1cc(=O)oc2c(C(=O)C(C)(C)C(C)O)c(O)c3c(c12)OC(C)(C)C=C3		MT-2		>37 µM
Cc1cn([C@@H]2O[C@H](CO)[C@@H](CN=[N+]=[N-])[C@@H]2O)c(=O)[nH]c1=O		MT-2	IIIB	>100 µM
CC(C)(C)OC(=O)N1C2C3(CO)C(c4ccccc4)C4(CO)C1C1(CO)C(c5ccccc5)C2(CO)C3N(C(=O)OC(C)(C)C)C41		MT-4	IIIB	>0.083 µM
c1ccc(-c2ncc(C(c3ccccc3)n3ccnc3)c(-c3ccccc3)n2)cc1		MT-4	IIIB	>26 µM
CN1C(=O)[C@@H](c2cc(Cl)c(O)c(Cl)c2)NC(=O)[C@@H]2NC(=O)[C@H](c3cc(Cl)c(O)c(Cl)c3)NC(=O)[C@@H](NC(=O)C(=O)c3cc(Cl)c(O)c(Cl)c3)Cc3c[nH]c4cc(ccc34)-c3cc2cc(c3O)Oc2ccc(cc2)C[C@H]1C(=O)N[C@@H](C(=O)O)c1ccc(O)cc1		MT-4		3 µg/mL
Cc1cc(-c2nc(-c3ccc(N4C(=O)C=CC5C4c4ccccc4N5C)cc3)no2)no1		MT-4	LAI	1–32 µM
NCCCC[C@H](COC(N)=O)NC(=O)CN(CCCCN)C(=O)OC[C@@H](N)CCCNc1c(N)c(=O)c1=O		MT-4		12.4 µM

6 of the rows above, restated:

SMILES	mutations	cell line	strain	result
CCOCn1c(C(=O)C2=CCCCC2)c(CC)c(=O)[nH]c1=O		MT-4	IIIB WT	3.1 µM
Fc1cccc(F)c1Cn1c(=S)[nH]c2ccc(Cl)cc21		MT-4	IIIB	0.58 µg/mL
CC(C)(C)NC(=O)[C@@H]1C[C@@H]2CCCC[C@@H]2CN1C[C@H](O)CNC(=O)[C@@H]1N[C@@H]([C@H](NC(=O)Cc2ccccc2)C(=O)NCc2ccccc2)SC1(C)C		MT-4	RF	0.35 µM
CC1(C)[C@@H](O[C@H]2O[C@H](C(=O)O)[C@@H](O)[C@H](O)[C@H]2O[C@@H]2O[C@H](C(=O)O)[C@@H](O)[C@H](O)[C@H]2O)CC[C@]2(C)[C@H]3C(=O)C=C4[C@@H]5C[C@@](C)(C(=O)O)CC[C@]5(C)CC[C@@]4(C)[C@]3(C)CC[C@@H]12		MT-4	IIIB	<620 µM
CN1C(=O)[C@@H](c2cc(Cl)c(O)c(Cl)c2)NC(=O)[C@@H]2NC(=O)[C@H](c3cc(Cl)c(O)c(Cl)c3)NC(=O)[C@@H](NC(=O)C(=O)c3cc(Cl)c(O)c(Cl)c3)Cc3c[nH]c4cc(ccc34)-c3cc2cc(c3O)Oc2ccc(cc2)C[C@H]1C(=O)N[C@@H](C(=O)O)c1ccc(O)cc1		MT-4		3 µg/mL
c1ccc(-c2ncc(C(c3ccccc3)n3ccnc3)c(-c3ccccc3)n2)cc1		MT-4	IIIB	>26 µM